## Deep mutational scan of the Zika virus protease

Values reported by Ni et al. 2025 (doi:10.1038/s41467-025-63602-z).

The scanned region of Zika virus MR766 is shown below (positions 1-308): NS2B is 2-131, NS3 begins at position 132.
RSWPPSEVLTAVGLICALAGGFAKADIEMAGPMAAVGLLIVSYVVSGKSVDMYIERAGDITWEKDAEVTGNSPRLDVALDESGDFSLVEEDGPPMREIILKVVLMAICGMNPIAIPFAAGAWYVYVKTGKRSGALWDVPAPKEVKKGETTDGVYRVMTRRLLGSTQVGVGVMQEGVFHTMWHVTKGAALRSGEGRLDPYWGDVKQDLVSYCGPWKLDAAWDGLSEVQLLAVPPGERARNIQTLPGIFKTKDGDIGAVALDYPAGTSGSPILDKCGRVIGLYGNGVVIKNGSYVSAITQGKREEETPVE

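Mutant virus pools were grown in human Huh-7.5 cells. The effect is the change in frequency of a mutant, normalised to wild type, as a mean of three replicate libraries (two for positions 207-308). The aim was to find sites where inhibitor-binding pockets cannot change.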

Values are log2 effects on growth: 0 is wild type, lower means poorer growth. Rows are sites, columns the new residue; wt marks the wild-type residue. The authors count -1 or higher as tolerated. Position 1 is the last residue of NS2A.

site | A | C | D | E | F | G | H | I | K | L | M | N | P | Q | R | S | T | V | W | Y | *
Y154 | -5.83 | -5.21 | -4.45 | -5.04 | -4.90 | -6.24 | -5.25 | -5.13 | -5.46 | -7.19 | -5.45 | -4.79 | -6.79 | -5.17 | -6.71 | -6.76 | -6.60 | -6.11 | -5.57 | wt | -6.20
R155 | -6.18 | -5.54 | -4.80 | -5.45 | -5.49 | -6.45 | -5.68 | -3.40 | -5.39 | -7.51 | -5.92 | -5.69 | -7.18 | -6.08 | wt | -7.12 | -6.99 | -6.21 | -6.06 | -5.85 | -6.31
V156 | -6.53 | -5.54 | -5.20 | -6.00 | -5.63 | -6.92 | -5.84 | -0.42 | -5.65 | -4.17 | -5.88 | -5.20 | -7.11 | -5.89 | -7.23 | -6.96 | -6.74 | wt | -6.29 | -5.42 | -6.31
M157 | -6.04 | -2.13 | -4.36 | -4.50 | -0.64 | -6.17 | -2.72 | 4.47 | -2.95 | -0.85 | wt | -4.87 | -6.62 | -5.24 | -5.76 | -6.62 | -5.78 | -1.01 | -0.56 | -1.29 | -6.97
T158 | 1.68 | 0.93 | -4.98 | -4.95 | -4.74 | 2.93 | -4.35 | -3.95 | -4.73 | -5.39 | -2.26 | -0.55 | -7.21 | -4.92 | -5.78 | 1.00 | wt | -1.73 | -4.83 | -4.87 | -6.77
R159 | -5.15 | -4.89 | -4.50 | -5.11 | -4.72 | -6.06 | -5.31 | -4.57 | -1.42 | -4.39 | -4.80 | -4.51 | -6.68 | -3.72 | wt | -4.48 | -3.81 | -6.22 | -4.88 | -4.70 | -7.16
R160 | -1.97 | -1.69 | -5.47 | -4.95 | -5.50 | -2.61 | -1.67 | -4.28 | -2.15 | -6.65 | -3.44 | -3.76 | -7.02 | -3.59 | wt | -1.67 | -2.52 | -6.09 | -0.95 | -5.65 | -7.17
L161 | -5.61 | -3.95 | -4.72 | -4.67 | -4.92 | -6.19 | -5.05 | -1.04 | -4.73 | wt | -2.21 | -4.59 | -5.09 | -5.42 | -6.77 | -6.14 | -5.72 | -2.50 | -5.01 | -4.84 | -6.76
L162 | -5.88 | -3.69 | -5.16 | -4.76 | -2.57 | -6.35 | -4.82 | -1.16 | -4.96 | wt | -1.75 | -5.29 | -6.23 | -5.08 | -6.10 | -6.84 | -5.14 | -3.52 | -4.09 | -2.48 | -7.03
G163 | -3.48 | -1.96 | -5.42 | -5.00 | -4.56 | wt | -3.12 | -4.61 | -4.21 | -4.89 | -4.11 | -4.78 | -6.65 | -4.89 | -4.41 | -4.69 | -5.15 | -6.77 | -5.66 | -2.31 | -6.99
S164 | -0.61 | 0.47 | -2.62 | -1.34 | -2.79 | -2.03 | -0.07 | -1.17 | -1.59 | -1.98 | -1.60 | -0.10 | 0.10 | -0.27 | -0.02 | wt | -0.30 | -0.52 | -4.09 | -3.25 | -6.43
T165 | -1.56 | 0.84 | -4.97 | -4.93 | 1.01 | -0.88 | 0.58 | -1.42 | -3.37 | -1.28 | -0.67 | -0.49 | -6.46 | -0.67 | -0.85 | -0.78 | wt | 0.66 | -0.42 | -0.80 | -6.52
Q166 | -6.25 | -5.29 | -5.10 | -5.55 | -4.76 | -6.39 | -3.24 | -5.00 | -6.21 | -7.34 | -5.67 | -5.33 | -7.03 | wt | -7.06 | -6.96 | -6.46 | -6.35 | -5.81 | -5.03 | -6.86
V167 | 0.35 | -0.94 | -6.00 | -6.22 | -5.61 | -7.26 | -4.98 | -0.86 | -5.57 | -6.34 | -5.82 | -5.13 | -6.55 | -5.83 | -7.46 | -2.76 | -2.69 | wt | -6.23 | -5.60 | -7.64

Extract of 23 entries:

R155F read -5.49.
R160D read -5.47.
M157Y read -1.29.
V156H read -5.84.
T158S read 1.00.
S164I read -1.17.
V167W read -6.23.
M157E read -4.50.
R159D read -4.50.
T158L read -5.39.
G163W read -5.66.
T158F read -4.74.
V156A read -6.53.
Q166R read -7.06.
R159K read -1.42.
V156F read -5.63.
R160E read -4.95.
R160V read -6.09.
V167D read -6.00.
V167S read -2.76.
G163E read -5.00.
Q166H read -3.24.
S164T read -0.30.

Values above 0 are not proof of better growth: six high scorers were tested one by one, five grew less well than wild type and one about as well. Stop codons (*) centre on -7 and mark the level of dead virus. Positions 1-103, 104-206 and 207-308 were made and measured as separate libraries.